Measured values from several laboratories, pooled; numbers as filed in NIAID ChemDB.

Common to all: whole-cell or culture tests; organism: Influenza A virus

ECn is the concentration giving n% inhibition of infection, replication or growth. Two numbers with a dash give a range or band. Inhibition is in % at the dose shown (toxicity tests: loss of growth or viability). An empty or dashed field is not shown. Lines come from different laboratories, so protocols vary.

structure,strain,cells,endpoint,dose,result
O=C1CCCN1C12CC3CC(CC(C3)C1)C2,H2N2 A/Singapore/1/57,MDCK,inhibition,10 µg/mL,100%
CO[C@@H]1[C@H](C)OC(O[C@H]2CC(Oc3cc4cc5c(c(O)c4c(O)c3C)C(=O)[C@@H](OC3C[C@@H](OC4C[C@H](OC6C[C@](C)(O)[C@@H](OC(C)=O)[C@H](C)O6)[C@@H](O)[C@H](C)O4)[C@H](O)[C@@H](C)O3)[C@H]([C@@H](OC)C(=O)[C@@H](O)[C@H](C)O)C5)O[C@@H](C)[C@H]2OC(C)=O)C[C@@H]1O,H7N1 avian/Ulster 73,CEF,inhibition,0.5 µg/mL,<100%
CC(=O)N[C@H]1[C@H]([C@H](O)[C@H](O)CO)OC(C(=O)O)=C[C@@H]1N=C(N)N,A/Singapore/1/57,MDCK,EC50,,0.014 µM
C1CCC(C23CC4CC(CC(C4)C2)C3)NC1,H2N2 A2 JAPAN/305/57,MDCK,EC50,,3.3 µM
N=C(N)c1ncn([C@@H]2O[C@H](CO)[C@@H](O)[C@H]2O)n1,H5N1 A/duck/MN/1525/81,MDCK,inhibition,11 µg/mL,90%
O=C(O)C(Cl)P(=O)(O)O,A/JAPAN,,EC50,,320 µM
[NH3+]CCCC12CC3CC(CC(C3)C1)C2,H2N2 A/Singapore/1/57,MDCK,inhibition,0.5 µg/mL,100%
C1CCN(CCN2CCCCC2C23CC4CC(CC(C4)C2)C3)CC1,H2N2 A2 JAPAN/305/57,MDCK,EC50,,>561 µM
CNC12CC3(C)CC(C)(CC(C)(C3)C1)C2,H2N2 A/Singapore/1/57,MDCK,inhibition,10 µg/mL,100%
CN(C)CCN1CCCCC1C12CC3CC(CC(C3)C1)C2,H2N2 A2 JAPAN/305/57,MDCK,EC50,,51.3 µM
C[NH2+]C12CC3CC(C)(CC(C)(C3)C1)C2,H2N2 A/Singapore/1/57,MDCK,inhibition,8 µg/mL,100%
N#CNc1nncs1,A/ANN ARBOR,MDCK,EC50,,0.5 µg/mL
C1CCC2(CC1)CCNC2,A2 JAPAN,Chick embryo fibroblasts,inhibition,100 µM,<20%
CC(=O)N[C@H]1[C@H]([C@H](O)[C@H](O)CO)OC(C(=O)O)=C[C@@H]1N=C(N)N,H2N2 A/Singapore/1/57,MDCK,EC50,,0.014 µM
C1CC2C3CC(C2C1)C1(CCNC1)C3,A2 JAPAN,Chick embryo fibroblasts,inhibition,100 µM,40–70%
NC12CC3CC(CC(C3)C1)C2,H2N3 A/HK/7/87,MDCK cells,EC50,,2.4 µM
NC(=O)c1ncn([C@@H]2O[C@H](CO)[C@@H](O)[C@H]2O)n1,A/Singapore/1/57,MDCK,EC50,,70 µM
C=CCN1CCC2(C1)C1CC3CC(C1)CC2C3,A2 JAPAN,Chick embryo fibroblasts,inhibition,100 µM,>70%
NC(=O)c1ncn([C@@H]2O[C@H](CO)[C@@H](O)[C@H]2O)n1,H2N2 A2 JAPAN/305/57,MDCK,EC50,,22.1 µM
CC(=O)N[C@H]1[C@H]([C@H](O)[C@H](O)CO)OC(C(=O)O)=C[C@@H]1N,H2N2 A/Singapore/1/57,MDCK,EC50,,1.5 µM
C1CC2(CN1)C1CC3CC(C1)CC2C3,A2 JAPAN,Chick embryo fibroblasts,inhibition,100 µM,40–70%
NC(=O)c1nc(F)c[nH]c1=O,H2N2 Kaizuka/2/65,MDCK,EC50,,0.029 µg/mL
CC(C)N1CCC2(C1)C1CC3CC(C1)CC2C3,A2 JAPAN,Chick embryo fibroblasts,inhibition,100 µM,40–70%
NC12CC3CC(CC(C3)C1)C2,H2N2 A2 JAPAN/305/57,MDCK,EC50,,45 µM